From US7435438B1, “Disinfectant and method of use” (Pure BioScience, priority 2003, dated 2008)

Tested on: Legionella pneumophila serogroup 1

silver dihydrogen citrate
eradication of Legionella compared with silver chloride solution (80 ppb): as effective as silver chloride solution (80 ppb)
